{"source": "paper PMC4207539", "about": "(Journal of Medicinal Chemistry, 2014)", "system": "VEEV TrD strain", "assay_type": "cell-based, Venezuelan equine encephalitis virus"}
{"smiles": "CCN1CCN(Cc2nc3ccc([N+](=O)[O-])cc3c(=O)n2-c2ccccc2F)CC1", "note": "[compound 1, 2-((4-Ethylpiperazin-1-yl)methyl)-3-(2-fluorophenyl)-6-nitroquinazolin-4(3H)-one]", "values": [{"measurement": "titer reduction, TrD strain", "value": "no measurable viral replication"}]}
